According to patent US7947647B2, “Synthetic mimics of mammalian cell surface receptors: method and compositions” (The Penn State Research Foundation, priority 2004, dated 2011):

System: lipid raft fractions of plasma membranes of Jurkat lymphocytes
Test: Isolation of lipid rafts by sucrose density gradient ultracentrifugation
Assay type: cell-based, human
Settings: receptors 1 μM with anti-DNP-AF488, Triton-X, 4° C.

cholera toxin B subunit [reference compound]
association with low-density lipid raft membrane fraction (#5): a low density fluorescent membrane fraction (#5) was observed
